A mixed list of measured activities; the numbers were collected in NIAID ChemDB.

Shared fields: whole-cell or culture tests; species: Mycobacterium tuberculosis

Percent inhibition refers to the dose given; in toxicity tests it is the harm to the cells. Neighbouring rows are from separate reports. ECn: concentration that inhibits the pathogen or its effect by n%. MIC bound: limit read from a one-dose screen. MIC50, MIC90 and the like: level of inhibition, or share of isolates inhibited. An empty or dashed field is not shown.

structure,strain or isolate,method,dose,read-out,result
Cl.c1ccn(-n2cccc2)c1,H37Rv,-,-,MIC,>100 µg/mL
C=C(C)[C@@H]1CC[C@](C)(CCC#N)/C(=N/NC(N)=O)C1,H37Rv,resazurin,6.25 µg/mL,inhibition,9%
CCCCNCC(O)c1ccccc1,H37Rv,-,-,MIC,>100 µg/mL
CCCCCCCCCCCNCCNCCCOCC,-,-,-,MIC,25 µM
CO[C@H]1/C=C/O[C@@]2(C)Oc3c(C)c(O)c4c(=O)c(c5oc6cc(N7CCN(CC(C)C)CC7)cc(=O)c6nc5c4c3=C2O)NC(=O)/C(C)=C\C=C\[C@H](C)[C@H](O)[C@@H](C)[C@@H](O)[C@@H](C)[C@H](OC(C)=O)[C@@H]1C,TN800,-,-,MIC,16 µg/mL
CN(C)CC1(C)CCc2c(ccc3ccccc23)C1=O.Cl,H37Rv,-,-,MIC,>100 µg/mL
CCCCC(CC)CN1CN(CC(CC)CCCC)CC(C)(NCCN[C@H]2C[C@@H]2c2ccccc2)C1,-,-,-,MIC,50 µM
CN(C)CC(O)CO,H37Rv,-,-,MIC,100 µg/mL
COc1ccccc1CCNCCNCC12CC3CC(CC(C3)C1)C2,-,-,-,MIC,50 µM
O=C(O)CCC(=O)c1ccc2ccccc2c1,H37Rv,-,-,MIC,>100 µg/mL
OCc1ccccc1Sc1ccccc1CNCCNCCC1=CCCCC1,-,-,-,MIC,12.5 µM
O=c1c2sc3ccccc3sc=2c(=O)c2c(Cl)c(Cl)c(Cl)c(Cl)c12,H37Rv,BACTEC,6.25 µg/mL,inhibition,34%
O=C(O)c1c(Cl)c(Cl)c(Cl)c(Cl)c1-c1c2cc(I)c(=O)c(I)c-2oc2c(I)c(O)c(I)cc12,H37Rv,-,-,MIC,25 µg/mL
COc1ccccc1/C=C/C(=O)c1ccccc1O,-,-,-,EC50,>12.5 µg/mL
CC(C)CC(C)NCCNCCC(c1ccccc1)c1ccccc1,-,-,-,MIC,6.25 µM
CCCCCCCC(=O)NN(Cn1c(=S)sc2ccccc21)Cn1c(=S)sc2ccccc21,H37Rv,BACTEC,12.5 µg/mL,inhibition,33%
COc1ccc(CNCCNCC23CC4CC(CC(C4)C2)C3)cc1OC,-,-,-,MIC,50 µM
COc1cc2nccc(Cl)c2cc1OC,H37Rv,-,-,MIC,>100 µg/mL
O=C(CN=C(CN(c1ccccc1)c1ccccc1)Oc1c(Cl)cc(Cl)cc1Cl)N1c2ccccc2Sc2ccccc21,H37Rv,BACTEC,12.5 µg/mL,inhibition,86%
CCCCCc1cc2c(cc1O)oc(=O)c1ccc(C)cc12,H37Rv,-,-,MIC,>100 µg/mL
Cc1c2ncccc2cc2oc3ccccc3c(=O)c12,H37Rv,BACTEC,-,MIC bound,>12.5 µg/mL
CN(C)CCCCCCCCOc1ccccc1,H37Rv,-,-,MIC,25 µg/mL
CC1(C)[C@H]2CC[C@@H](CNCCNCCc3ccccc3Cl)[C@@H]1C2,-,-,-,MIC,50 µM
Clc1ccc(CCNCCNCCCc2ccccc2)c(Cl)c1,-,-,-,MIC,25 µM
O=C(O)c1ccccc1Nc1cccc2c1C(=O)c1cccc(Nc3ccccc3C(=O)O)c1C2=O,H37Rv,BACTEC,-,MIC bound,>12.5 µg/mL
O=C(/C=C/c1ccccc1Br)c1ccccc1O,-,-,-,EC50,<12.5 µg/mL
NC(Cc1ccc(Cl)cc1Cl)C(=O)O,H37Rv,-,-,MIC,25 µg/mL
CO[C@H]1/C=C/O[C@@]2(C)Oc3c(C)c(O)c4c(=O)c(c5oc6cc(N7CCN(CC(C)C)CC7)cc(=O)c6nc5c4c3=C2O)NC(=O)/C(C)=C\C=C\[C@H](C)[C@H](O)[C@@H](C)[C@@H](O)[C@@H](C)[C@H](OC(C)=O)[C@@H]1C,3147 (rifampin-sensitive),-,-,MIC,0.003 µg/mL
CC(=O)Nn1cnc(C(C#N)C=N)c1N,H37Rv,BACTEC,12.5 µg/mL,inhibition,6%
CCCCCCCCCCCNCCNCc1ccc(C)cc1,-,-,-,MIC,50 µM
OCCN=C1c2ccccc2C2C(c3ccccc31)C1c3ccccc3C(=NCCO)c3ccccc3C21,H37Rv,BACTEC,12.5 µg/mL,inhibition,29%
CC[C@H]1OC(=O)[C@H](C)[C@@H](O[C@H]2C[C@@](C)(OC)[C@@H](O)[C@H](C)O2)[C@H](C)[C@@H](O[C@@H]2O[C@H](C)C[C@H](N(C)C)[C@H]2O)[C@](C)(OC)C[C@@H](C)C(=O)[C@H](C)[C@@H](O)[C@]1(C)O,MDR,-,-,MBC90,>8 µg/mL
Cc1ccc(C(=O)O)cc1-n1c(-c2ccc(Cl)cc2)nnc1-c1ccc(Br)cc1,H37Rv,-,-,MIC,>100 µg/mL
CC1CN(c2cc3c(cc2F)c(=O)c(C(=O)O)cn3-c2ccc(F)cc2F)CCN1,ATCC 35830,-,-,MBC,2 µg/mL
NCc1c[nH]c(=S)[nH]1,H37Rv,-,-,MIC,>100 µg/mL
CCOC(=O)Nc1cc(N)c([N+](=O)[O-])c(NCC(C)=O)n1,H37Rv,-,-,EC50,<12.5 µg/mL
O=CNc1ncc([N+](=O)[O-])s1,H37Rv,BACTEC,12.5 µg/mL,inhibition,1%
C=CCNCCNC[C@]1(C)CCC[C@]2(C)c3ccc(C(C)C)cc3CC[C@@H]12,-,-,-,MIC,25 µM
O=C1CC(c2ccc(Cl)cc2)Oc2ccccc21,-,-,-,EC50,>12.5 µg/mL
CCOC(=O)Cn1nc(-c2ccc([N+](=O)[O-])o2)oc1=O,H37Rv,BACTEC,-,MIC bound,>12.5 µg/mL
CC[N+]1(CC)CC[N+](CC)(CC)CC1.Cc1ccc(S(=O)(=O)[O-])cc1.Cc1ccc(S(=O)(=O)[O-])cc1,H37Rv,-,-,MIC,>100 µg/mL
CC(=O)Nc1ccc(C2=N/C(=C\c3ccc(Cl)c(Cl)c3)C(=O)O2)cc1,H37Rv,BACTEC,-,MIC bound,>12.5 µg/mL
CC1COc2c(N3CCN(C)CC3)c(F)cc3c(=O)c(C(=O)O)cn1c23,ATCC 35827,-,-,MBC,8 µg/mL
COc1ccc2cc(C(=O)CCC(=O)O)cc(NC(C)=O)c2c1,H37Rv,-,-,MIC,>100 µg/mL
Oc1cc(Br)ccc1/C=N/Nc1ccccn1,H37Rv,BACTEC,-,MIC bound,>12.5 µg/mL
O=C(CC(=O)c1ccccc1)Nc1ccc(NS(=O)(=O)c2ccccc2)cc1,H37Rv,-,-,MIC,100 µg/mL
CO[C@H]1/C=C/O[C@@]2(C)Oc3c(C)c(O)c4c(O)c(c5c(c4c3C2=O)NC2(CCN(CC(C)C)CC2)N=5)=NC(=O)/C(C)=C\C=C\[C@H](C)[C@H](O)[C@@H](C)[C@@H](O)[C@@H](C)[C@H](OC(C)=O)[C@@H]1C,31 (rifampin-resistant),-,-,MIC,0.2 µg/mL
CCN(CCO)CCNc1ccc(C)c2sc3ccccc3c(=O)c12,H37Rv,BACTEC,12.5 µg/mL,inhibition,100%
CCOC(=O)Nc1cc(NCC(=O)CNc2ccc(C(=O)OCC)cc2)c([N+](=O)[O-])c(N)n1,H37Rv,-,12.5 µg/mL,inhibition,0%
C[C@H]1COc2c(N3CCN(C)CC3)c(F)cc3c(=O)c(C(=O)O)cn1c23,ATCC35838,-,-,MIC,0.25 µg/mL
CC(=O)Nc1cc(Cl)ccc1[N+](=O)[O-],H37Rv,-,-,MIC,50 µg/mL
COc1cc(OC)c2c(c1)OC(c1ccc(O)cc1)CC2=O,H37Rv,-,-,EC50,>12.5 µg/mL
COc1ccc(C2C3=C(CCC(CN(C)C)C3=O)OC3=C2C(=O)C(CN(C)C)CC3)cc1,H37Rv,BACTEC,-,MIC bound,>12.5 µg/mL
CCOC(=O)Cc1cc(O)c(C(=O)OCC)c(O)c1C(=O)O,H37Rv,-,-,MIC,>100 µg/mL
CC(C)N=c1cc2n(-c3ccc(Cl)cc3)c3ccccc3nc-2cc1Nc1ccc(Cl)cc1,MDR6,broth dilution / resazurin,-,MIC,0.25 µg/mL
CN(C)c1ccc(C2C=Cc3cc(Cl)ccc3N2)cc1,H37Rv,-,-,MIC,>100 µg/mL
NC[C@H]1O[C@H](O[C@H]2[C@H](O)[C@@H](O[C@H]3O[C@H](CO)[C@@H](O)[C@H](N)[C@H]3O)[C@H](N)C[C@@H]2N)[C@H](O)[C@@H](O)[C@@H]1O,TN4800 (W33),-,-,MIC,>256 µg/mL
CCOC(=O)Nc1cc2[nH]c(-c3ccc(CC)cc3)nc2c(N(CCc2ccccc2)Cc2ccccc2)n1,H37Rv,-,-,EC50,<12.5 µg/mL
CCCCN(CCCC)CCCCNc1ccc(C)c2sc3ccccc3c(=O)c12,H37Rv,BACTEC,12.5 µg/mL,inhibition,100%
CCCCCCCCCCCCCCCCCCNCCCCCCCCCCCCCCCCCC.Cl,H37Rv,-,-,MIC,100 µg/mL
CC1CC(CN2c3ccccc3Sc3ccccc32)C(C)N1C.Cl,H37Rv,BACTEC,12.5 µg/mL,inhibition,63%
c1ccc(C(NCCNCc2ccc3c(c2)OCO3)c2ccccc2)cc1,-,-,-,MIC,50 µM
Nc1ccc(S(=O)(=O)c2ccc(Cl)cc2)cc1,H37Rv,-,-,MIC,>100 µg/mL
CC(C)=CCC/C(C)=C/CNCCNCCNc1ccccc1,-,-,-,MIC,50 µM
CCCCCCCCCCCCCCCCCCNCCNC(C)CCc1ccccc1,-,-,-,MIC,50 µM
O=C(CCl)NC(=O)N(/N=C/c1ccco1)c1ccccc1,H37Rv,BACTEC,-,MIC,≥12.5 µg/mL
CCOC(=O)Nc1cc(N)c2ncc(-c3ccc(Cl)cc3)nc2n1,H37Rv,-,-,EC50,>12.5 µg/mL
CC[C@H]1OC(=O)[C@H](C)[C@@H](O[C@H]2C[C@@](C)(OC)[C@@H](O)[C@H](C)O2)[C@H](C)[C@@H](O[C@@H]2O[C@H](C)C[C@H](N(C)C)[C@H]2O)[C@](C)(O)C[C@@H](C)C(=O)[C@H](C)[C@@H](O)[C@]1(C)O,MDR,-,-,MIC90,>8 µg/mL
CC(NCCNC[C@@H]1CC[C@H]2C[C@@H]1C2(C)C)c1cccc2ccccc12,-,-,-,MIC,50 µM
CN1CCN(CCN2CCN(CCCN3c4ccccc4Sc4ccc(Cl)cc43)CC2)C1=O,H37Rv,BACTEC,-,MIC bound,>12.5 µg/mL
CCCCCCCCCCCNCCNC(C)CC,-,-,-,MIC,25 µM
CN(/N=C/c1ccccc1)C(=O)c1nc2c(N)nc(-c3ccccc3)nc2nc1N,H37Rv,resazurin,6.25 µg/mL,inhibition,-21%
COc1ccc(CNCCNCCc2ccc(F)cc2)c(OC)c1,-,-,-,MIC,50 µM
CCOC(=N)CC(=N)OCC,H37Rv,BACTEC,12.5 µg/mL,inhibition,0%
CCOC(=O)Nc1cc(NC(c2ccccc2)c2ccccc2)c([N+](=O)[O-])c(N)n1,H37Rv,-,-,EC50,>12.5 µg/mL

A second listing of 5 rows from above:

| structure | strain or isolate | method | dose | read-out | result |
|---|---|---|---|---|---|
| COc1ccccc1CCNCCNCC12CC3CC(CC(C3)C1)C2 | - | - | - | MIC | 50 µM |
| Cc1c2ncccc2cc2oc3ccccc3c(=O)c12 | H37Rv | BACTEC | - | MIC bound | >12.5 µg/mL |
| O=C(/C=C/c1ccccc1Br)c1ccccc1O | - | - | - | EC50 | <12.5 µg/mL |
| Nc1ccc(S(=O)(=O)c2ccc(Cl)cc2)cc1 | H37Rv | - | - | MIC | >100 µg/mL |
| CC(C)N=c1cc2n(-c3ccc(Cl)cc3)c3ccccc3nc-2cc1Nc1ccc(Cl)cc1 | MDR6 | broth dilution / resazurin | - | MIC | 0.25 µg/mL |